The target of the assay is T1, human α7 nicotinic acetylcholine receptor (human, UniProt P36544 23-502, N-linked glycan on Asn23 (printed numbering)).
T1 construct: Homopentamer; On HEK293 or CHO cells (with NACHO) and on Xenopus oocytes; for cryo-EM it was purified and put into nanodiscs with 100 µM nicotine; also called α7-nAChR; hα7-nAChR
Kind of assay: immunofluorescence expression control on HEK293 cells (FIG. 13).

B1: α-bungarotoxin (ligand)
chain: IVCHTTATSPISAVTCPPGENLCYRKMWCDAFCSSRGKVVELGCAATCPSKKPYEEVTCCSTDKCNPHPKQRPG
Take B1: the binding result was “binds”.
